Measured values published in patent publication US20050153376A1.

Experiments:
[1] = molecular target: MHC class II (HLA-DR1) on human LG-2 cells (human)
[2] = molecular target: MHC class II (HLA-DR1) on human LG-2 cells (human); test: Scatchard analysis, 125I-labelled toxin on LG-2 cells; low affinity site
[3] = molecular target: MHC class II (HLA-DR1) on human LG-2 cells (human); test: Scatchard analysis, 125I-labelled toxin on LG-2 cells; high affinity site

recombinant SPE-H superantigen (mature)
percent competition [1]: 50% | Kd [2]: 2 µM | Kd [3]: 0.037 µM
